Results of unrelated studies side by side (data: NIAID ChemDB).

Common to all: host cell toxicity; cells: MT-4; measure: CC50

Neighbouring rows are from separate reports. CCn is the concentration with n% toxicity to the cells.

compound | result
C1CCNCCNCCCNCCNC1 | >930 µM
O=c1ccn([C@@H]2CC(CO)(CO)CO2)c(=O)[nH]1 | >100 µg/mL
Cc1nc(CCCCCCC(=O)c2ccccc2)n2ncccc12 | 280 µM
Cc1cn([C@H]2C[C@H](N=[N+]=[N-])[C@@H](CO)O2)c(=O)[nH]c1=O | 93 µM
O=C(CCCCCCc1ncc2ccc(Cl)nn12)c1ccccc1 | 25 µM
Nc1ncnc2c1ncn2[C@H]1CC[C@@H](COC(=O)C(=O)N2CCCC2C(=O)N[C@H](Cc2ccccc2)C(=O)OCc2ccccc2)O1 | >150 µM
CSc1nc(N)c(C)c(/C(=N/O)c2ccccc2)n1 | >25 µM
Cc1nc(CCCCCCC(=O)c2ccccc2)n2nc(N3CCCC3)ccc12 | <0.03 µM
Nc1ccn([C@H]2CC[C@@H](COC(=O)C(=O)N3CCCC3C(=O)N[C@H](Cc3ccccc3)C(=O)OCc3ccccc3)O2)c(=O)n1 | >150 µM
Cc1cn(-c2ccc3c(C)nc(CCCCCCC(=O)c4ccccc4)n3n2)cn1 | 260 µM
Nc1ncnc2nnn(CCOCP(=O)(O)O)c12 | >365 µM
CCCOc1nc(Cc2ccccc2)cc(=O)[nH]1 | 515 µM
CSc1nc(N)c(C)c(C(=O)CCc2ccccc2)n1 | >25 µM
Nc1ncnc2c1nnn2CCOCP(=O)(O)O | >365 µM
CNC(C)[C@H]1O[C@H](O[C@@H]2[C@@H](O)[C@H](O[C@@H]3OC[C@@](C)(O)[C@@H](NC)[C@@H]3O)[C@@H](NC(=O)[C@@H](N)CCCN=C(N)N)C[C@H]2NC(=O)[C@@H](N)CCCN=C(N)N)[C@H](NC(=O)[C@@H](N)CCCN=C(N)N)[C@@H](O)[C@@H]1O | >1000 µM
C(CCC1CNCCNCCCNCCNC1)CCC1CNCCNCCCNCCNC1 | 200 µM
c1cc(CN2CCCNCCNCCCNCC2)ccc1CN1CCCNCCNCCCNCC1 | 5 µg/mL
Nc1ccn([C@H]2CS[C@@H](COC(=O)CP(=O)(O)O)O2)c(=O)n1 | 300 µM
Nc1ncnc2c1ncn2[C@@H]1CC(CO)(CO)CO1 | >100 µg/mL
CCOP(=O)(CC(=O)Nc1ccn([C@H]2CS[C@@H](CO)O2)c(=O)n1)OCC | 500 µM
O=c1c(O)c(-c2cc(O)c(O)c(O)c2)oc2cc(O)cc(O)c12 | >100 µg/mL
O=c1[nH]cnc2c1ncn2[C@H]1CC[C@@H](CO)O1 | >150 µM
CCc1nc(CCCCCCC(=O)c2ccccc2)n2nc(Cl)ccc12 | 25 µM
Cc1c(N)nc(S(C)(=O)=O)nc1C(=O)c1ccccc1 | >25 µM
CCOC(=O)CCNP(=O)(OC[C@@H]1O[C@H](n2cc(C)c(=O)[nH]c2=O)C[C@H]1N=[N+]=[N-])OC[C@H]1O[C@@H](n2cc(C)c(=O)[nH]c2=O)C[C@@H]1N=[N+]=[N-] | >100 µM
Nc1ncnc2c1ncn2[C@H]1C=C[C@@H](CO)O1 | 49 µM
C1CNCCNCC(CCCC2CNCCNCCCNCCNC2)CNCCNC1 | 400 µM
CCCCCOc1nc(Cc2ccccc2)c(C)c(=O)[nH]1 | 195 µM
CSc1nc(N)c(C)c(C(=O)Cc2ccccc2)n1 | >25 µM
Cc1cn([C@H]2C[C@H](N=[N+]=[N-])[C@@H](COC(=O)C(=O)N3CCCC3C(=O)N[C@H](Cc3ccccc3)C(=O)OCc3ccccc3)O2)c(=O)[nH]c1=O | 97 µM
C1CNCCNCCNCCNCCNCCN1 | <7.6 µM
CC(C)=CCc1c(O)cc(O)c2c(=O)c(O[C@@H]3O[C@@H](C)[C@H](O)[C@@H](O)[C@H]3O)c(-c3ccc(O)cc3)oc12 | 210 µg/mL
Cc1cn([C@H]2C[C@@H](O)[C@H](CO)O2)c(=O)[nH]c1=O | >100 µM
Cc1cn([C@H]2C[C@H](N=[N+]=[N-])[C@@H](CO)O2)c(=O)[nH]c1=O | 1 µg/mL
Cc1c(Cc2ccccc2)nc(OC2CCCCC2)[nH]c1=O | 375 µM
Nc1nc2nn(CCOCP(=O)(O)O)nc2c(=O)[nH]1 | >315 µM
Cc1cn([C@H]2C[C@H](N=[N+]=[N-])[C@@H](CO)O2)c(=O)[nH]c1=O | 1.9 µM
O=c1ccn([C@@H]2O[C@@H](CO)[C@H](O)[C@H]2O)c(=O)[nH]1 | >1000 µM
CC(C)=CCN1Cc2cc(Cl)cc3[nH]c(=S)n(c23)C[C@@H]1C | 67 µM
COC(=O)[C@H](C)NP(=O)(OC[C@@H]1CC[C@H](n2cnc3c(N)ncnc32)O1)Oc1ccccc1 | 6.5 µM
CCOC(=O)c1oc2cc(O)cc(O)c2c(=O)c1Oc1ccc(OCc2ccccc2)cc1OCc1ccccc1 | >25 µg/mL
CSc1nc(N)c(C)c(C(=O)c2cccc3ccccc23)n1 | >19.37 µM
Cc1cn([C@H]2C[C@H](N=[N+]=[N-])[C@@H](CO)O2)c(=O)[nH]c1=O | 75 µM
Nc1nc2c(ncn2[C@@H]2O[C@@H](CO)[C@H](O)[C@H]2O)c(=O)[nH]1 | 100 µM
CC1(C)CCc2c(O)ccc([C@@H]3COc4cc(O)ccc4C3)c2O1 | 87 µg/mL
Cc1c(Cc2ccccc2)nc(OC2CCCC2)[nH]c1=O | >1000 µM
Nc1ccn([C@H]2CS[C@@H](COP(=O)(O)C(=O)O)O2)c(=O)n1 | 1000 µM
CCCCCOc1nc(Cc2ccccc2)cc(=O)[nH]1 | 245 µM
Nc1nc2c(ncn2[C@H]2C[C@@H](O)[C@H](CO)O2)c(=O)[nH]1 | 50 µM
Cc1c(Cc2ccccc2)nc(OC(C)C)[nH]c1=O | 243 µM
Cc1cn([C@H]2C[C@H](N=[N+]=[N-])[C@@H](CO)O2)c(=O)[nH]c1=O | >0.004 µM

The last 7 rows once more:

compound | result
CC1(C)CCc2c(O)ccc([C@@H]3COc4cc(O)ccc4C3)c2O1 | 87 µg/mL
Cc1c(Cc2ccccc2)nc(OC2CCCC2)[nH]c1=O | >1000 µM
Nc1ccn([C@H]2CS[C@@H](COP(=O)(O)C(=O)O)O2)c(=O)n1 | 1000 µM
CCCCCOc1nc(Cc2ccccc2)cc(=O)[nH]1 | 245 µM
Nc1nc2c(ncn2[C@H]2C[C@@H](O)[C@H](CO)O2)c(=O)[nH]1 | 50 µM
Cc1c(Cc2ccccc2)nc(OC(C)C)[nH]c1=O | 243 µM
Cc1cn([C@H]2C[C@H](N=[N+]=[N-])[C@@H](CO)O2)c(=O)[nH]c1=O | >0.004 µM